Measurements published in patent US10500261B2 (priority 2014, dated 2019).

How the values were obtained:
[1] = test system: HS3 CPS conjugate antisera; settings: 2 μl of 1 mg/ml spotted on nitrocellulose; mouse serum 1:500
[2] = test system: HS4 CPS conjugate antisera; settings: 2 μl of 1 mg/ml spotted on nitrocellulose; rabbit serum
[3] = test system: HS23/36 CPS conjugate antisera; settings: 2 μl of 1 mg/ml spotted on nitrocellulose; rabbit serum; chemiluminescence
[4] = test system: HS1 CPS conjugate antisera; settings: 2 μl of 1 mg/ml spotted on nitrocellulose; mouse serum 1:500

5-Amino-pentanyl 6-O-methylphosphramidate-β-D-galactopyranoside
recognition by HS3 CPS-CRM197 conjugate antiserum [1]: did not react | recognition by HS4 CPS-CRM197 conjugate antiserum [2]: strongly recognized | recognition by HS23/36 CPS-CRM197 conjugate antiserum [3]: strongly recognized | recognition by HS1 CPS-CRM197 conjugate antiserum [4]: weaker intensity
